Results of unrelated studies side by side (data: NIAID ChemDB).

Shared fields: whole-cell or culture tests; organism: Mycobacterium bovis

Lines come from different laboratories, so protocols vary. ECn is the concentration giving n% inhibition of infection, replication or growth. An empty or dashed field is not shown.

smiles | strain | read-out | method | result
O=c1ccc2ccc(O)cc2o1 | BCG | MIC | broth dilution | 62.5 µg/mL
CC1CNCCN1S(=O)(=O)c1cccc2cnccc12 | BCG | EC50 |  | <20 µg/mL
O=C(NCc1ccc(N2CCN(Cc3ccccc3)CC2)cc1)c1ccc([N+](=O)[O-])o1 | BCG | MIC |  | 0.012 µg/mL
CCC1CN(c2cc3c(cc2F)c(=O)c(C(=O)O)cn3C2CC2)CCN1 | BCG-CX2 (A90V D94N) | MIC |  | 14 µg/mL
CC1=CCC2C(C1)C2(C)C | AN5 | MIC | resazurin | 7.29 µg/mL
O=C(O)c1ccc(N=Cc2ccccc2O)cc1O | BCG | EC75 |  | 31 µM
CCC1CN(c2c(F)cc3c(=O)c(C(=O)O)cn(C4CC4)c3c2OC)CCN1 | BCG-CX2 (A90V D94N) | MIC |  | 2 µg/mL
CN[C@@H]1[C@H](O[C@H]2[C@H](O[C@H]3[C@H](O)[C@@H](O)[C@H](N=C(N)N)[C@@H](O)[C@@H]3N=C(N)N)O[C@@H](C)[C@]2(O)C=O)O[C@@H](CO)[C@H](O)[C@H]1O | BCG | MIC |  | 6.25 µg/mL
O=C(NCc1ccc(N2CCN(Cc3ccccc3)CC2)nc1)c1ccc([N+](=O)[O-])o1 | BCG | MIC |  | 0.0015 µg/mL
CC(C)N1CCN(c2ccc(OC[C@@H]3CO[C@@](Cn4cncn4)(c4ccc(Cl)cc4Cl)O3)cc2)CC1 |  | EC50 |  | >100 µM
CC1CN(c2c(F)cc3c(=O)c(C(=O)O)cn(C4CC4)c3c2Br)CCN1 | BCG-KD1295 (WILD TYPE) | MIC |  | 0.058 µg/mL
c1ccc(-c2ccc(C(c3ccccc3)n3ccnc3)cc2)cc1 |  | EC50 |  | >1 µM
O=C(O)c1ccc(N=Cc2ccc(O)c(O)c2O)cc1O | BCG | EC75 |  | 27 µM
Clc1ccccc1C(c1ccccc1)(c1ccccc1)n1ccnc1 |  | EC50 |  | >1 µM
Oc1cccc2cccnc12 | BCG | MIC |  | 2 µM
CO[C@H]1/C=C/O[C@@]2(C)Oc3c(C)c(O)c4c(O)c(c(/C=N/N5CCN(C)CC5)c(O)c4c3C2=O)NC(=O)/C(C)=C\C=C\[C@H](C)[C@H](O)[C@@H](C)[C@@H](O)[C@@H](C)[C@H](OC(C)=O)[C@@H]1C | SB0133 | MIC | resazurin | 2 µg/mL
Cc1nc2c([nH]1)c(=O)n(C)c(=O)n2Cc1ccco1 |  | EC50 |  | >100 µM

The first 2 rows once more:

smiles	strain	read-out	method	result
O=c1ccc2ccc(O)cc2o1	BCG	MIC	broth dilution	62.5 µg/mL
CC1CNCCN1S(=O)(=O)c1cccc2cnccc12	BCG	EC50		<20 µg/mL